Drawing on paper PMC3343083, this text covers Kd, koff and kon for 1 substance.

For this assay, the target named is wild-type H5 PB2 ‘627-domain’ (aa. 538–693) (influenza A virus A/HongKong/156/97(H5N1)).

Regarding “wild-type H5 nucleoprotein (NP), purified”, the Kd was found to be 252 nM, the koff came out at 0.00337 s⁻¹ and the kon came out at 13400 M⁻¹ s⁻¹.

Usually Kd stands for a measure of binding affinity in units of concentration. For orientation: koff means a measure of how fast the partners let go of each other. The low end stands for a long-lived complex, the high end for a short-lived complex. One may read the kon as a measure of how fast the partners come together. Low values mean slower complex formation, high ones faster complex formation.
